Data from US11584744B2 (UNIVERSITY OF WASHINGTON, priority 2017, dated 2023).

Test system: S. aureus (ATCC 29213)
Settings: 8× the MIC

For `CC(=O)NC[C@H]1CN(c2ccc(N3CCOCC3)c(F)c2)C(=O)O1` [LNZ, linezolid], which “Resistance frequency (Expt. 1)” value (72 h) is on record?
The value was <2.63 × 10^−10.

What about the “Resistance frequency (Expt. 2)” value (72 h) of the same compound?
Its value is <1.81 × 10^−10.

What about the “Resistance frequency (average or greater #)” value (two independent experiments) of the same compound?
Its value is <2.63 × 10^−10.
